Anti-infective test results gathered from many reports (values: NIAID ChemDB through PubChem).

Common to all: tests in culture; organism: Candida albicans; endpoint: inhibition

Blank or dashed fields: not listed here. Conditions beyond the fields shown may differ between rows. Inhibition is in % at the dose shown (toxicity tests: loss of growth or viability).

SMILES,changes,tested at,method,strain,result
COc1ccc(C(Cc2ccc(Cl)cc2Cl)C(c2ccc(OC)cc2)n2cncn2)cc1,-,256 µg/mL,-,28 strains,0%
CC(C)(O)c1cn(-c2ccc3ccccc3c2)nn1,-,2048 µg/mL,broth dilution,URM 4609,0%
C/C(=N\c1n[nH]c(N)n1)c1ccccn1.C/C(=N\c1n[nH]c(N)n1)c1ccccn1.[O]=[V+2],-,200 µg/mL,agar diffusion / agar,-,55%
CC1(C)O[C@H]2[C@H](O)[C@@H](N=[N+]=[N-])C=C(c3ccc(C=O)cc3)[C@H]2O1,-,15.6 µg/mL,broth dilution / turbidity,ATCC 10231,60.12%
COc1ccc(CC(c2ccc(OC)cc2)n2cnnc2)cc1,-,256 µg/mL,-,28 strains,57%
Cc1ccc(-n2cc(C(C)(C)O)nn2)cc1C,-,2048 µg/mL,broth dilution,URM 4817,0%
O=C(Cn1ccnc1)c1ccc(F)cc1F,-,100 µg/mL,broth dilution,Fluconazole-resistant,81%
COc1ccc(C(C(Cc2ccc(Cl)cc2Cl)c2ccc(Cl)cc2)n2cncn2)cc1,-,256 µg/mL,-,28 strains,18%
C[C@H]1[C@H](O)[C@@H](C)/C=C/C=C/C=C/C=C/C=C/C=C/C=C/[C@H](O[C@@H]2O[C@H](C)[C@@H](O)[C@H](N)[C@@H]2O)C[C@@H]2O[C@](O)(C[C@@H](O)C[C@@H](O)CC[C@H](O)[C@@H](O)C[C@@H](O)CC(=O)O[C@H]1C)C[C@H](O)[C@H]2C(=O)O,cph1 (CPH1),1 µg/mL,broth dilution,ATCC 90028,100%
COc1ccc(C(=O)Cn2cncn2)cc1,-,80 µg/mL,broth dilution,Fluconazole-resistant,35%
CCC(c1ccc(OC)cc1)C(c1ccc(OC)cc1)n1ccnc1,-,256 µg/mL,-,28 strains,57%
C/C(=N\c1n[nH]c(N)n1)c1ccccn1,-,200 µg/mL,agar diffusion / agar,-,42%
Cc1cc(C=Nc2ccc(N=Cc3cc(C)cc(/C=N/Nc4nc5ccccc5s4)c3O)cc2)c(O)c(/C=C/Nc2nc3ccccc3s2)c1,-,50 µg/mL,turbidity,-,17.57%
CC(C)(O)c1cn(-c2cccc3ccccc23)nn1,-,2048 µg/mL,broth dilution,URM 4385,0%
COc1ccccc1/C=N/c1n[nH]c(N)n1.COc1ccccc1/C=N/c1n[nH]c(N)n1.[O]=[V+2],-,200 µg/mL,agar diffusion / agar,-,46%
CC(C)(O)c1cn(-c2ccc([N+](=O)[O-])cc2)nn1,-,2048 µg/mL,broth dilution,URM 4384,0%
Nc1nc(/N=C/c2c([O-])ccc3ccccc23)n[nH]1.Nc1nc(/N=C/c2c([O-])ccc3ccccc23)n[nH]1.[O]=[V+2],-,200 µg/mL,agar diffusion / agar,-,61%
NCCCC[C@H](NC(=O)[C@H](CCCN=C(N)N)NC(=O)[C@H](CCCN=C(N)N)NC(=O)[C@H](CCCCN)NC(=O)[C@H](CCCCN)NC(=O)[C@@H](N)CCCCN)C(=O)N[C@@H](CCCN=C(N)N)C(=O)O,-,12.5 µM,-,ATCC 10231,0%
C[C@H]1[C@H](O)[C@@H](C)/C=C/C=C/C=C/C=C/C=C/C=C/C=C/[C@H](O[C@@H]2O[C@H](C)[C@@H](O)[C@H](N)[C@@H]2O)C[C@@H]2O[C@](O)(C[C@@H](O)C[C@@H](O)CC[C@H](O)[C@@H](O)C[C@@H](O)CC(=O)O[C@H]1C)C[C@H](O)[C@H]2C(=O)O,-,1 µg/mL,broth dilution,sap9/10,100%
Nc1nc(/N=C/c2ccccn2)n[nH]1.Nc1nc(/N=C/c2ccccn2)n[nH]1.[O]=[V+2],-,200 µg/mL,agar diffusion / agar,-,66%
COc1ccc(C(O)Cn2ccnc2)cc1,-,80 µg/mL,broth dilution,Fluconazole-resistant,39%

The last 2 rows once more:

{"SMILES": "Nc1nc(/N=C/c2ccccn2)n[nH]1.Nc1nc(/N=C/c2ccccn2)n[nH]1.[O]=[V+2]", "tested at": "200 µg/mL", "method": "agar diffusion / agar", "result": "66%"}
{"SMILES": "COc1ccc(C(O)Cn2ccnc2)cc1", "tested at": "80 µg/mL", "method": "broth dilution", "strain": "Fluconazole-resistant", "result": "39%"}